Among the data in article PMC10186300 (Scientific Reports, 2023) are Kd and kon values, retold here.

Protein sequences, listed by entry. Tags and fused reporters are not part of them. Residues count along the entry.
UniProt Q07157, 186-264 F207W limits assumed: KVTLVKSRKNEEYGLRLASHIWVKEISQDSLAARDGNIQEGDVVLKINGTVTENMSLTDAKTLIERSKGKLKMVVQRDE

Experiment [1] has as its target T1, PDZ2 domain of ZO1 (Homo sapiens, UniProt Q07157, F207W). Nature of the experiment: Equilibrium binding experiments (FRET). The conditions noted are these: dansylated E peptide 1 µM, increasing [PDZ2] F207W, 50 mM Hepes pH 7.0, 10 °C, FRET signal at 500 nm, hyperbolic fit.
Experiment [2] concerns the target T1, PDZ2 domain of ZO1. Nature of the experiment: Stopped-flow FRET binding kinetics of dansylated E peptides with PDZ2. Conditions: dansyl-E peptide 2 μM vs increasing [PDZ2] F207W, Hepes 50 mM pH 7.0, 10 °C, excitation 280 nm, 475 nm cut-off, 3–5 traces averaged.
[3] abbreviates: 0 M NaCl, slope of kobs vs [PDZ2].

Each structure is given as a SMILES string.

Usually Kd stands for the equilibrium constant for the complex coming apart. High values mean weaker binding, low ones tighter binding. By kon is commonly meant the second-order rate constant of association. High values mean faster complex formation, low ones slower complex formation. Take `CC(C)C[C@H](NC(=O)[C@@H]1CCCN1C(=O)[C@@H]1CCCN1C(=O)[C@H](CCCCN)NC(=O)[C@H](CO)NS(=O)(=O)c1cccc2c(N(C)C)cccc12)C(=O)N1CCC[C@H]1C(=O)N1CCC[C@H]1C(=O)N[C@@H](CC(=O)O)C(=O)N[C@@H](CCC(=O)O)C(=O)N[C@@H](Cc1c[nH]c2ccccc12)C(=O)N[C@H](C(=O)O)C(C)C` [MERS-CoV E peptide]: the Kd was determined as 19 µM on PDZ2 domain of ZO1 [1] (0.030 M NaCl), 34 µM on PDZ2 domain of ZO1 [1] (0.075 M NaCl) and 29 µM on PDZ2 domain of ZO1 [1] (0.150 M NaCl). The kon on PDZ2 domain of ZO1 [2] (setting [3]) is 1.07e+07 ± 300000 M⁻¹ s⁻¹.
In the case of `CC(C)C[C@H](NC(=O)[C@H](CC(=O)O)NC(=O)[C@@H]1CCCN1C(=O)[C@@H](NC(=O)CNC(=O)[C@H](CCC(=O)O)NC(=O)[C@H](CO)NC(=O)[C@H](CO)NC(=O)[C@H](CC(N)=O)NS(=O)(=O)c1cccc2c(N(C)C)cccc12)C(C)C)C(=O)N[C@@H](CC(C)C)C(=O)N[C@H](C(=O)O)C(C)C` [SARS-CoV E peptide], the kon at PDZ2 domain of ZO1 [2] (setting [3]) stood at 1.9e+06 ± 200000 M⁻¹ s⁻¹; at PDZ2 domain of ZO1 [2] (0.030 M NaCl), 1.4e+06 ± 200000 M⁻¹ s⁻¹; at PDZ2 domain of ZO1 [2] (0.075 M NaCl), 800000 ± 200000 M⁻¹ s⁻¹; at PDZ2 domain of ZO1 [2] (0.150 M NaCl), 600000 ± 100000 M⁻¹ s⁻¹.
